# Test results taken from ChEMBL document CHEMBL5107986, “Small molecule NS5B RdRp non-nucleoside inhibitors for the treatment of HCV infection: A medicinal chemistry perspective” (Eur J Med Chem, 2022).
# Test system: Hepatitis C virus
# Experiment: Antiviral activity against HCV GT1b assessed as inhibition of viral replication
# Type: functional, organism-based, Hepacivirus hominis
smiles,measurement,value
CCO[P@]1(=O)N=C(C2=C(O)[C@H](C(C)(C)C)N(CCC(C)(C)C)C2=O)Nc2ccc(NS(C)(=O)=O)cc21,EC50,5 nM
